Measured values published in paper PMC3144219, “Identification of Inhibitors against Mycobacterium tuberculosis Thiamin Phosphate Synthase, an Important Target for the Development of Anti-TB Drugs” (PLoS ONE, 2011).

By UniProt entry, the sequences of proteins in these tests, tags left out. Where a name states a change or a piece, a line headed by the entry shows the natural chain unless it says otherwise.
UniProt P9WG75: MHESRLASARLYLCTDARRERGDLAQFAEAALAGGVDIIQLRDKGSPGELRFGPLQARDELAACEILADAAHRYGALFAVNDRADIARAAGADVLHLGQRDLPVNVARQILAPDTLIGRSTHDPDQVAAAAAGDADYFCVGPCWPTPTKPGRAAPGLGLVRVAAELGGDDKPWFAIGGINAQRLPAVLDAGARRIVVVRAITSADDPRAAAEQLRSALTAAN

Tests used:
[1] = molecular target: M.tuberculosis thiamin phosphate synthase (MtTPS) (Mycobacterium tuberculosis, UniProt P9WG75); test: Thiamin phosphate synthase thiochrome assay (inhibition of MtTPS activity); conditions: for IC50: MtTPS activity, HMP-PP 5 µM (the Km value); for percent inhibition of MtTPS activity: compound at 100 µg/ml, normal assay conditions
M.tuberculosis H37Rv = test: MIC99 determination in broth culture with CFU plating; assay type: cell-based; conditions: 7 days, 99% inhibition of growth

2-{5-[2,4,6-trinitrophenyl)amino]-1H-tetrazol-1-yl}ethanol
IC50 [1]: 20 µ/ml
percent inhibition of MtTPS activity [1]: greater than 20%
MIC99 for M.tuberculosis (M.tuberculosis H37Rv): 300 µg/mL

3-benzhydryloxy-8-methyl-8-azab icyclo [3.2.1]octane;methanesulfonic acid
IC50 [1]: >100 µ/ml
percent inhibition of MtTPS activity [1]: greater than 20%
